Data: patent US20230158005A1 (priority 2020, published 2023)

Test system: A/England/195/2009 (H1N1)
Assay: Viral titers in the lungs of mice intranasally infected with influenza A
Assay type: in vivo

CC1=C(COCCC(C)(C)C)C(=O)N(Nc2ccc(C(F)(F)F)c(Cl)n2)C1=O [felezonexor, 3-[(3,3-dimethylbutoxy)methyl]-1-{[6-chloro-5-(trifluoromethyl) (2-pyridyl)]amino}-4-methylazoline-2,5-dione]
reduction in viral titers in the lung (Day 5, regimen D: 100 mg/kg oral, bid on Days 0, 2, 4, qd on Days 1, 3): two orders of magnitude | reduction in viral titers in the lung (Day 5, regimen E: 100 mg/kg oral, qd on Days 0, 4, bid on Day 2): one order of magnitude
